Reference: patent US7678778B2 (priority 2004, dated 2010)

Assay: Storage stability of lyophilized compound (purity assay)
Format: physicochemical
Conditions: −23° C., 3 months

Work on `O=P(O)(NCCCl)NCCCl` yielded a purity on storage of 70%.
